Results of unrelated studies side by side (data: NIAID ChemDB).

All rows: enzyme or target tests; organism: Human cytomegalovirus

Inhibition is in % at the dose shown (toxicity tests: loss of growth or viability). ICn: concentration for n% inhibition. Blank or dashed fields: not listed here. Rows are shuffled and stem from different studies.

compound,tested at,measure,method,target,value
N/C(=N\OC(=O)c1ccc(Cl)cc1)c1ccc(Cl)cc1Cl,,IC50,scintillation proximity / radiometric,Polymerase,>50 µM
O=C(/C=C/c1ccccc1)Nc1nnc(NCc2ccc(F)cc2)s1,,IC50,,Polymerase,>25 µM
O=C1C(OC2CCCCC2)=C(C2CCCCC2)C(=O)c2ccccc21,,IC50,scintillation proximity,Protease,148 µM
O=C(Nc1nnc(NCc2cccc3ccccc23)s1)c1cc(F)cc(F)c1,,IC50,,Polymerase,>25 µM
O=C(NCCc1ccccc1)c1cc2ccccc2cc1O,,IC50,,HCMV DNA polymerase,>100 µM
COc1cc(OC)cc(C(=O)O/N=C(\N)c2ccc(Cl)cc2Cl)c1,,IC50,scintillation proximity / radiometric,Polymerase,5.3 µM
O=C(Nc1ccc([N+](=O)[O-])cc1)c1cc2cc(O)ccc2cc1O,,IC50,,HCMV DNA polymerase,33.7 µM
N/C(=N/OC(=O)c1cccc2ccccc12)c1ccc(Cl)cc1Cl,,IC50,scintillation proximity / radiometric,Polymerase,3.1 µM
CC1(C)CC(=O)C(C2=C(Cl)C(=O)c3ccccc3C2=O)C(=O)C1,,IC50,scintillation proximity,Protease,0.73 µM
Cc1cccc2nc(N[C@H](C)c3ccc(I)cc3)oc(=O)c12,,IC50,,Protease,0.23 µM
COc1ccccc1/C(N)=N\OC(=O)c1cccc2ccccc12,,IC50,scintillation proximity / radiometric,Polymerase,>100 µM
COC(=O)[C@H](CCSC)Nc1nc2ccc(NC(=O)OC(C)(C)C)c(C)c2c(=O)o1,,IC50,,Protease,0.77 µM
O=C(NCc1ccc([N+](=O)[O-])cc1)c1cc2cc(Br)ccc2c(Br)c1O,,IC50,,HCMV DNA polymerase,10.6 µM
Cc1cccc2nc(N[C@@H](Cc3ccccc3)C(=O)OC(C)(C)C)oc(=O)c12,,IC50,,Protease,0.74 µM
N/C(=N\OC(=O)c1ccccc1-c1ccccc1)c1ccc(Cl)cc1Cl,,IC50,scintillation proximity / radiometric,Polymerase,5.4 µM
O=C1C(Cl)=C(CCCC2CCCCC2)C(=O)c2ccccc21,,IC50,scintillation proximity,Protease,67 µM
O=C(Nc1nnc(NCCNc2ccccc2)s1)c1ccc(I)cc1,,IC50,,Polymerase,>25 µM
O=C(NCc1ccc(Cl)cc1)c1ccc2ccccc2c1,,IC50,,HCMV DNA polymerase,>100 µM
Cc1c(NC(=O)OC(C)(C)C)ccc2nc(N(CC(=O)OC(C)(C)C)c3ccccc3)oc(=O)c12,,IC50,,Protease,3 µM
O=C(Nc1ccc(Cl)cc1)c1cc2cc(O)ccc2cc1O,,IC50,,HCMV DNA polymerase,>40 µM
Cc1c(CNC(=O)OC(C)(C)C)ccc2nc(NC3(C(=O)N(C)C)CC3)oc(=O)c12,,IC50,,Protease,0.81 µM
Cc1cc(Br)ccc1/C(N)=N\OC(=O)c1cccc2ccccc12,,IC50,scintillation proximity / radiometric,Polymerase,4.2 µM
CC(C)c1cc(C(C)C)c(C(=O)Nc2nnc(NCCCNC3CCCCC3)s2)c(C(C)C)c1,25 µM,inhibition,,Polymerase,49.5%
N/C(=N\OC(=O)c1ccccc1Cl)c1ccc(Cl)cc1Cl,,IC50,scintillation proximity / radiometric,Polymerase,10 µM
Cc1ccc(C(=O)Nc2nnc(NC3CCCCCC3)s2)cc1,,IC50,,Polymerase,>25 µM
Cc1ccc2nc(N[C@@H](C)c3ccccc3)oc(=O)c2c1,,IC50,,Protease,4.9 µM
CCOc1ccc2ccccc2c1C(=O)Nc1nnc(NCCSCC)s1,,IC50,,Polymerase,>25 µM
COCC(=O)Nc1ccc2nc(N[C@@H](Cc3ccccc3)C(=O)OC)oc(=O)c2c1C,,IC50,,Protease,0.64 µM
O=C(Nc1nnc(NCCNc2ccccc2)s1)c1cccc([N+](=O)[O-])c1,,IC50,,Polymerase,>25 µM
N/C(=N/OC(=O)c1ccccc1)c1ccc(Cl)cc1Cl,,IC50,scintillation proximity / radiometric,Polymerase,22 µM
COc1ccccc1C(=O)Nc1nnc(NCCc2ccccc2)s1,,IC50,,Polymerase,>25 µM
O=C(NCc1cccc(F)c1)c1cc2ccccc2cc1O,,IC50,,HCMV DNA polymerase,>100 µM

Repeating the first 2 entries:

compound | tested at | measure | method | target | value
N/C(=N\OC(=O)c1ccc(Cl)cc1)c1ccc(Cl)cc1Cl |  | IC50 | scintillation proximity / radiometric | Polymerase | >50 µM
O=C(/C=C/c1ccccc1)Nc1nnc(NCc2ccc(F)cc2)s1 |  | IC50 |  | Polymerase | >25 µM